{"source": "patent US20250263467A1", "about": "(VIR BIOTECHNOLOGY, published 2025)", "biological_target": "SARS-CoV-2 S protein (strain BetaCoV/Wuhan-Hu-1/2019) expressed on transfected cells (SARS-CoV-2 (Wuhan-Hu-1), UniProt P0DTC2 14-1273)", "assay": "flow cytometry, B cell supernatant on S-transfected ExpiCHO cells", "data": [{"binder": "SARS-CoV-2 S306 (antibody, V domains shown) VH: QVQLVQSGAEVKKPGASVKVSCKASTYTFTSFGISWVRQAPGQGLEWMGWITTYSGDTNYAQKFQGRVTMTTDTSTNTAYMELRSLRSDDTAVYYCASDYFDSSGYYHSFDYWGQGTLVTVSS VL: EIVLTQSPDTLSLSPGERATLSCRASQSVSSYLAWYQQRPGQAPRLLIYDASKRATGIPARFSGSGSGTDFTLTISSLEPEDFAVYYCQQRSNWPPGCSFGQGTKVEIK", "values": [{"measurement": "binding result", "result": "binds"}]}]}
